Construct, isoform or probe ends are uncertain for at least one entry.
System: MBP-Z3495 (LysR-type regulator)
Test: EMSA
Conditions: 0-4 uM protein; recombinant protein; protein details: N-terminal MBP (pMal-c5X); probe letters rebuilt from the primers and the genome

## AGCATGAGTGCTACTAAACAGATCGGTAAAGCACGCATAGTATTTCCTCAATGTATGATCAAAACGTCAATATTGAATCAGGAGCTTGTAAAAATGACAAGACGGGCAAGCGCCCGTCCTGAATGATATTACAAATTGTGGAAACAGCCTAAAAATTACCAGCCTTTAACAGCGCCGCCGTTAAACACTTTGTTTGCTGCTTCGTAAACTTCGTCAGACTGATAAGCCTGGACGAATTTCTTCACGTTCTCGGCGTCTTTGTTATCTTCACGCGTTACGATCAGGTTTACGTACGGGGAGTCTTTATCTTCGACAAAGATACC (double strand) [rcsF promoter]
  binding result: binds

Reference: paper PMC10819331
